Details: Table 1
Description: Current antimicrobials have a short life with no residual effect. They lose there effectiveness in high protein environment. Certain bacteria developed resistance. They are toxic or cause irritations. Some are highly corrosive.

Structure (SMILES): OCl [Hypochlorite]
- Life-time: 2 h
- Non-staining: bleaching
- Odorless: no
- pH: 6–7

— patent publication US20080063679A1, “NANOCOMPOSITES WITH RESIDUAL BIOCIDAL AND BIOSTATIC PROPERTIES” (Quartek Corporation, priority 2006, published 2008)
